Laboratory results taken from patent publication US20240317834A1, “COMPOSITIONS AND METHODS FOR NEUROLOGICAL DISEASES” (CODA BIOTHERAPEUTICS, published 2024).

Experiments:
[1] = molecular target: T1, CODA1054 (R101M, L131F in SEQ ID NO: 33) (human (chimera of human α7-nAChR and …))
T1 chain: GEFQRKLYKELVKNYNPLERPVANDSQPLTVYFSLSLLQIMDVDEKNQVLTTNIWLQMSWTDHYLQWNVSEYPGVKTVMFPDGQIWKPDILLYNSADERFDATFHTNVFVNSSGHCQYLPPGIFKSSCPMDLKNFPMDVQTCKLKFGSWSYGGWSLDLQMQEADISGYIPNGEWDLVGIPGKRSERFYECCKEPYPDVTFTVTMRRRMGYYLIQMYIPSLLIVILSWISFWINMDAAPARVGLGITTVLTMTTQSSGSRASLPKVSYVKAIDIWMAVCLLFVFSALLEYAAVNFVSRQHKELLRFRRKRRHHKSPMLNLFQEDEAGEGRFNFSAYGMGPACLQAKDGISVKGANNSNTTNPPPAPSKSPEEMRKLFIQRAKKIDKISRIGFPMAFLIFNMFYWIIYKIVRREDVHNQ

[2] = molecular target: T2, CODA807 (Y115D, L131E in SEQ ID NO: 33) (human (chimera of human α7-nAChR and …))
T2 chain: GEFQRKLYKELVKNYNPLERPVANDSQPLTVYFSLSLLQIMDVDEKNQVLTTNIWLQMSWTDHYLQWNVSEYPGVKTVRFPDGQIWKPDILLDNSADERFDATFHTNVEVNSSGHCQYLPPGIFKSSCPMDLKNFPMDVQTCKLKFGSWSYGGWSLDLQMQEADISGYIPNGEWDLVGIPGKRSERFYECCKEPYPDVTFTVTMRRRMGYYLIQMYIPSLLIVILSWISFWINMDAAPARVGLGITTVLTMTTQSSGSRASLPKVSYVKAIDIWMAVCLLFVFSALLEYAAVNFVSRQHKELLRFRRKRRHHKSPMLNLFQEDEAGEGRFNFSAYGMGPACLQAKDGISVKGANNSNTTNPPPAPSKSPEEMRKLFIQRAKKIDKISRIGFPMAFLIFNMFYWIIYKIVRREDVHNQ

[3] = molecular target: T3, CODA1053 (R101M, L131A in SEQ ID NO: 33) (human (chimera of human α7-nAChR and …))
T3 chain: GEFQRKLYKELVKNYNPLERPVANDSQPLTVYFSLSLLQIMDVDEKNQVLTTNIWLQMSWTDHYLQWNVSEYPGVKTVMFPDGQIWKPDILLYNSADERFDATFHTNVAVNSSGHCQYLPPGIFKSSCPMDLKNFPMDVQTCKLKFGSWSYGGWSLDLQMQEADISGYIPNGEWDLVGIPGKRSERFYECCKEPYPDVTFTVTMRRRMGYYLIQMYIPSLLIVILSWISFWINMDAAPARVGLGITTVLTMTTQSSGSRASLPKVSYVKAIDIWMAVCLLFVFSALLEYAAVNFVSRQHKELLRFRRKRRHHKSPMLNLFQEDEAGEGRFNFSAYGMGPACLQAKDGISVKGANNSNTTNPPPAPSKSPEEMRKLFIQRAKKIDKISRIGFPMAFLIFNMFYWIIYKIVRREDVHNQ

[4] = molecular target: T4, CODA1045 (R101W, Y210V in SEQ ID NO: 33) (human (chimera of human α7-nAChR and …))
T4 chain: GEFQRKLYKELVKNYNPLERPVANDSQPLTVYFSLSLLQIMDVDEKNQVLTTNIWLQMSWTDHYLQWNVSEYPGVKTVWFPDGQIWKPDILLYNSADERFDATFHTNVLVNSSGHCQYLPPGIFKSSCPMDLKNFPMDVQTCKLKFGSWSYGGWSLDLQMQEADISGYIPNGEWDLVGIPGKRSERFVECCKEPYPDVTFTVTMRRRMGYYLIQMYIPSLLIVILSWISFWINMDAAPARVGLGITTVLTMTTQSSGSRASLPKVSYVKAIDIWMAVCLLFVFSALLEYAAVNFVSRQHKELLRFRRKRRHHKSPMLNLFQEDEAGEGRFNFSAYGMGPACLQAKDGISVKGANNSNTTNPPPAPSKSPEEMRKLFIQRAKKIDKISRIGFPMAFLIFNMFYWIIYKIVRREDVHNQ

[5] = molecular target: T5, CODA805 (Y115D, S170T in SEQ ID NO: 33) (human (chimera of human α7-nAChR and …))
T5 chain: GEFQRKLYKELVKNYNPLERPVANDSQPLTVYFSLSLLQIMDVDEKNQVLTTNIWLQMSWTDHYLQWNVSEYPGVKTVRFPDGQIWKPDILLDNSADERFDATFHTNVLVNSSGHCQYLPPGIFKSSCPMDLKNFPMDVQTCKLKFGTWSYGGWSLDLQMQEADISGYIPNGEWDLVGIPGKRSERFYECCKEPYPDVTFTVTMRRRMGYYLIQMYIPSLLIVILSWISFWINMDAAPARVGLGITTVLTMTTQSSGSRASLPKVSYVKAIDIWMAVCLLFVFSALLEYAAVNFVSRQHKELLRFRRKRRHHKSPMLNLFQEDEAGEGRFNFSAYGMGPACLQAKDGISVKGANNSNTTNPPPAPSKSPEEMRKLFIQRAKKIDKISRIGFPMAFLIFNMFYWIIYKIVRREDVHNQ

[6] = molecular target: T6, CODA1047 (R101F, Y210V in SEQ ID NO: 33) (human (chimera of human α7-nAChR and …))
T6 chain: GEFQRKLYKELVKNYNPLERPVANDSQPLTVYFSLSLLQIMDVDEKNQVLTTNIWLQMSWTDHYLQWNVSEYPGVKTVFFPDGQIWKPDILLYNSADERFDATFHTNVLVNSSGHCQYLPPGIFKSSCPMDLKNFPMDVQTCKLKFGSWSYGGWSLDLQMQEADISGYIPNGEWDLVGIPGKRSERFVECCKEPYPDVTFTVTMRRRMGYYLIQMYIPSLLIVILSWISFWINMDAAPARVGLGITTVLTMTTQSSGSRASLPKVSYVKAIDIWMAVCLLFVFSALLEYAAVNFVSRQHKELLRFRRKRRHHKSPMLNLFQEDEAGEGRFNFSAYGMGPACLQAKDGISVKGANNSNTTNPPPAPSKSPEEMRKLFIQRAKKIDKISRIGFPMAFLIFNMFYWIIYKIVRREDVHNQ

B1: α-bungarotoxin conjugated to Alexa Fluor 647 (ligand)
chain: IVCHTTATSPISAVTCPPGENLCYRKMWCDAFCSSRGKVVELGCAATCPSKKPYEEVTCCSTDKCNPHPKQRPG
[1]
  Normalized AB MFI: 0.82 ratio to SEQ ID NO: 33 control
[2]
  Normalized AB %: 0.78 ratio to SEQ ID NO: 33 control
[3]
  Normalized AB %: 0.91 ratio to SEQ ID NO: 33 control
  Normalized AB MFI: 0.9 ratio to SEQ ID NO: 33 control
[4]
  Normalized AB MFI: 0.35 ratio to SEQ ID NO: 33 control
[5]
  Normalized AB %: 0.56 ratio to SEQ ID NO: 33 control
[6]
  Normalized AB %: 0.03 ratio to SEQ ID NO: 33 control
  Normalized AB MFI: 0.38 ratio to SEQ ID NO: 33 control
CODA1073
  Normalized AB %: 0.44 ratio to SEQ ID NO: 33 control
